The list shows a part of the results. Env chains of viruses from a treatment-interruption trial, translated from the printed DNA. IC50 / IC80 of two broadly neutralizing antibodies; lower = more sensitive virus; >50 µg/ml means not reached and <0.001 µg/ml is below the lowest dose. No active / inactive call.
Key:
[1] = molecular target: antibody 10-1074; assay: neutralization IC50; higher = virus less sensitive to the antibody
Experimental: (§1)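 Pseudovirus bearing the Env chain mixed with antibody, from 50 µg/ml in fivefold dilutions, on TZM-bl reporter cells, in duplicate.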

[2] = molecular target: antibody 3BNC117; assay: as above
Experimental: as §1

[3] = molecular target: antibody 10-1074; assay: neutralization IC80; higher = virus less sensitive to the antibody
Experimental: as §1

[4] = molecular target: antibody 3BNC117; assay: as above
Experimental: as §1

B1: HIV-1 Env, rebound clone, placebo arm (protein)
chain: MRVKGIRKSYQPLWVGGILLLGMLMLCSTTEQLWVTVYYGVPVWKEATTTLFCASDAKGYDTEAHNVWATHACVPTDPNPQELKLENVTENFNMWKNGMVQQMHEDIISLWDQSIKPCVKLTPLCVTLNCSGVNINNTNANITSNNTSWREMKEEIKNCSFNHTDTRNKMRKDYALFNSLDVIPIDRNDSTSYMLTSCNTSVITQACPKISFEPIPIHYCAPAGFAILKCNDKNFNGTGPCKNVSLVQCTHGIKPVVSTQLLLNGSLAEEDIVIRSENFTNNAKTIIVQLNSSIEITCIRPNNNTRKSIHLGPGAAFYATGDIIGDIRKAYCNISKVKWENTLDKIAKKLQGQFGENKTIVFNHSSGGDPEIVHHSFNCGGEFFYCNTTKLFSWNSTRTPNNSTDIITIPCRIKQIINRWQQVGRAIYAPPISGNISCSANITGLLLTRDGGDSNSTDNNTETFRPGGGDMRDNWRSELYKYKVVSIEPLGIAPTKARRRVVQREKRAVGMIGAMFLGFLGAAGSTMGAASVALTVQARQLLSGIVQQQNNLLRAIEAQQHMLQLTVWGIKQLQARVLAVERYLKDQQLLGIWGCSGKLICTTNVPWNISWSNRNLDDIWGNMTWMQWEREIDNYTGLIYSLLTESQTQQEQNEKELLELDKWASLWNWFDISNWLWYIRIFIMIVGGLVGLRIIFTILNVVNRVRKGYSPLSFQTRLPATRGPDRPEETEEEGGGRDRGRSETLVTGFLALIWDDLRSLCLFIYHRLRDLLLIATRSVELLGRRGWELLKYLWNLLQYWGQELRNSAVSLLNATAIAVAEGTDRIIEVAQRIGRAIIHIPRRIRQGAERALL
In the case of B1, the “neutralization IC50” value [1] is reported as 0.009 µg/mL, the “neutralization IC50” value [2] is reported as 0.619 µg/mL and the “neutralization IC80” value [3] is reported as 0.022 µg/mL. For the same binder, the “neutralization IC80” value [4] was 1.7 µg/mL.

B2: HIV-1 Env, rebound clone, placebo arm (protein)
chain: MRVKGIRKSYQPLWVGGILLLGMLMLCSTTEQLWVTVYYGVPVWKEATTTLFCASDAKGYDTEAHNVWATHACVPTDPNPQELKLENVTENFNMWKNGMVQQMHEDIISLWDQSIKPCVKLTPLCVTLNCSGVNINNTNANTTSNNTSWREMKEEIKNCSFNHTDTRNKMRKDYALFNSLDVIPIDRNDSTSYMLTSCNTSVITQACPKISFEPIPIHYCAPAGFAILKCNDKNFNGTGPCKNVSLVQCTHGIKPVVSTQLLLNGSLAEEDIVIRSENFTNNAKTIIVQLNSSIEITCIRPNNNTRKSIHLGPGAAFYATGDIIGDIRKAYCNISKVKWENTLDKIAKKLQGQFGENKTIVFNHSSGGDPEIVHHSFNCGGEFFYCNTTKLFSWNSTRTPNNSTDIITIPCRIKQIINRWQQVGRAIYAPPISGNISCSANITGLLLTRDGGDSNSTDNNTETFRPGGGDMRDNWRSELYKYKVVSIEPLGIAPTKARRRVVQREKRAVGMIGAMFLGFLGAAGSTMGAASVALTVQARQLLSGIVQQQNNLLRAIEAQQHMLQLTVWGIKQLQARVLAVERYLKDQQLLGIWGCSGKLICTTNVPWNISWSNRNLDDIWGNMTWMQWEREIDNYTGLIYSLLTESQTQQEQNEKELLELDKWASLWNWFDISNWLWYIRIFIMIVGGLVGLRIIFTILNVVNRVRKGYSPLSFQTRLPATRGPDRPEETEEEGGGRDRGRSETLVTGFLALIWDDLRSLCLFIYHRLRDLLLIATRSVELLGRRGWELLKYLWNLLQYWGQELRNSAVSLLNATAIAVAEGTDRIIEVAQRIGRAIIHIPRRIRQGAERALL
With B2 the “neutralization IC50” value [1] was 0.008 µg/mL, the “neutralization IC50” value [2] was 0.441 µg/mL and the “neutralization IC80” value [3] was 0.024 µg/mL. For the same binder, the “neutralization IC80” value [4] was 1.23 µg/mL.

B3: HIV-1 Env, rebound clone, placebo arm (protein)
chain: MRVKGIRKSYQPLWVGGILLLGMLMLCSTTEQLWVTVYYGVPVWKEATTTLFCASDAKGYDTEAHNVWATHACVPTDPNPQELKLENVTENFNMWKNGMVQQMHEDIISLWDQSIKPCVKLTPLCVTLNCSGVNINNTNANTTSNNTSWREMKEEIKNCSFNHTDTRNKMRKDYALFNSLDVIPIDRNDSTSYMLTSCNTSVITQACPKISFEPIPIHYCAPAGFAILKCNDKNFNGTGPCKNVSLVQCTHGIKPVVSTQLLLNGSLAEEDIVIRSENFTNNAKTIIVQLNSSIEITCIRPNNNTRKSIHLGPGAAFYATGDIIGDIRKAYCNISKVKWENTLDKIAKKLQGQFGENKTIVFNHSSGGDPEIVHHSFNCGGEFFYCNTTKLFSWNSTRTPNNSTDIITIPCRIKQIINRWQQVGRAIYAPPISGNISCSANITGLLLTRDGGDSNSTDNNTETFRPGGGDMRDNWRSELYKYKVVSIEPLGIAPTKARRRVVQREKRAVGMIGAMFLGFLGAAGSTMGAASVALTVQARQLLSGIVQQQNNLLRAIEAQQHMLQLTVWGIKQLQARVLAVERYLKDQQLLGIWGCSGKLICTTNVPWNISWSNRNLDDIWGNMTWMQWEREIDNYTGLIYSLLTESQTQQEQNEKELLELDKWASLGNWFDISNWLWYIRIFIMIVGGLVGLRIIFTILNVVNRVRKGYSPLSFQTRLPATRGPDRPEETEEEGGGRDRGRSETLVTGFLALIWDDLRSLCLFIYHRLRDLLLIATRSVELLGRRGWELLKYLWNLLQYWGQELRNSAVSLLNATAIAVAEGTDRIIEVAQRIGRAIIHIPRRIRQGAERALL
In the case of B3, the “neutralization IC50” value [1] is reported as 0.003 µg/mL, the “neutralization IC50” value [2] is reported as 0.954 µg/mL and the “neutralization IC80” value [3] is reported as 0.021 µg/mL. The “neutralization IC80” value [4] was 3.98 µg/mL.

B4: HIV-1 Env, rebound clone, placebo arm (protein)
chain: MRVKGIRKSYQPLWVGGILLLGMLMLCSTTEQLWVTVYYGVPVWKEATTTLFCASDAKGYDTEAHNVWATHACVPTDPNPQELKLENVTENFNMWKNGMVQQMHEDIISLWDQSIKPCVKLTPLCVTLNCSGVNINNTNANTTSNNTSWREMKEEIKNCSFNHTDTRNKMRKDYALFNSLDVIPIDRNDSTSYMLTSCNTSVITQACPKISFEPIPIHYCAPAGFAILKCNDKNFNGTGPCKKVSLVQCTHGIKPVVSTQLLLNGSLAEEDIVIRSENFTNNAKTIIVQLNSSIEITCIRPNNNTRKSIHLGPGAAFYATGDIIGDIRKAYCNISKVKWENTLDKIAKKLQGQFGENKTIVFNHSSGGDPEIVHHSFNCGGEFFYCNTTKLFSWNSTRTPNNSTDIITIPCRIKQIINRWQQVGRAIYAPPISGNISCSANITGLLLTRDGGDSNSTDNNTETFRPGGGDMRDNWRSELYKYKVVSIEPLGIAPTKARRRVVQREKRAVGMIGAMFLGFLGAAGSTMGAASVALTVQARQLLSGIVQQQNNLLRAIEAQQHMLQLTVWGIKQLQARVLAVERYLKDQQLLGIWGCSGKLICTTNVPWNISWSNRNLDDIWGNMTWMQWEREIDNYTGLIYSLLTESQTQQEQNEKELLELDKWASLWNWFDISNWLWYIRIFIMIVGGLVGLRIIFTILNVVNRVRKGYSPLSFQTRLPATRGPDRPEETEEEGGGRDRGRSETLVTGFLALIWDDLRSLCLFIYHRLRDLLLIATRSVELLGRRGWELLKYLWNLLQYWGQELRNSAVSLLNATAIAVAEGTDRIIEVAQRIGRAIIHIPRRIRQGAERALL
In the case of B4, the “neutralization IC50” value [1] is reported as 0.01 µg/mL, the “neutralization IC50” value [2] is reported as 0.455 µg/mL and the “neutralization IC80” value [3] is reported as 0.024 µg/mL. The “neutralization IC80” value [4] was 1.57 µg/mL.

B5: HIV-1 Env, rebound clone, placebo arm (protein)
chain: MRVKGIRKSYQPLWVGGILLLGMLMLCSTTEQLWVTVYYGVPVWKEATTTLFCASDAKGYDTEAHNVWATHACVPTDPNPQELKLENVTENFNMWKNGMVQQMHEDIISLWDQSIKPCVKLTPLCVTLNCSGVNINNTNANTTSNNTSWREMKEEIKNCSFNHTDTRNKMRKDYALFNSLDVIPIDRNDSTSYMLTSCNTSVITQACPKISFEPIPIHYCAPAGFAILKCNDKNFNGTGPCKNVSLVQCTHGIKPVVSTQLLLNGSLAEEDIVIRSENFTNNAKTIIVQLNSSIEITCIRPNNNTRKSIHLGPGAAFYATGDIIGDIRKAYCNISKVKWENTLDKIAKKLQGQFGENKTIVFNHSSGGDPEIVHHSFNCGGEFFYCNTTKLFSWNSTRTPNNSTDIITIPCRIKQIINRWQQVGRAIYAPPISGNISCSANITGLLLTRDGGDSNSTDNNTETFRPGGGDMRDNWRSELYKYKVVSIEPLGIAPTKARRRVVQREKRAVGMIGAMFLGFLGAAGSTMGAASVALTVQARQLLSDIVQQQNNLLRAIEAQQHMLQLTVWGIKQLQARVLAVERYLKDQQLLGIWGCSGKLICTTNVPWNISWSNRNLDDIWGNMTWMQWEREIDNYTGLIYSLLTESQTQQEQNEKELLELDKWASLWNWFDISNWLWYIRIFIMIVGGLVGLRIIFTILNVVNRVRKGYSPLSFQTRLPATRGPDRPEETEEEGGGRDRGRSETLVTGFLALIWDDLRSLCLFIYHRLRDLLLIATRSVELLGRRGWELLKYLWNLLQYWGQELRNSAVSLLNATAIAVAEGTDRIIEVAQRIGRAIIHIPRRIRQGAERALL
With B5 the “neutralization IC50” value [1] was 0.002 µg/mL, the “neutralization IC50” value [2] was 0.215 µg/mL and the “neutralization IC80” value [3] was 0.009 µg/mL. The “neutralization IC80” value [4] was 0.962 µg/mL.

B6: HIV-1 Env, rebound clone, placebo arm (protein)
chain: MKVRGTKMNWQHLWWRWGTMLLGMLMICKATEEKWVTVYYGVPVWKEATTTLFCASDAKAYEKEAHNVWATHACVPTDPSPQEVVLENVTENFNMWKNNMVEQMHEDIISLWDQSLKPCVKLTPLCVTLNCTDYTNSNSTNHTNSNSSSPTPTAGGEIKNCSFNITTNIRDKIKKEHALFYSLDVVQIDINDNTSYRLISCNTSVITQACPKTTFEPIPIYYCAPAGFAILKCNNKTFDGKGPCKNVSTVQCTHGIRPVVSTQLLLNGSLAEKEIVIRSDNFSDNTKNIIVQLKDPVVINCTRPNNNTRKGIHIGPGRAFYATGKVIGDIRQAYCNISKEEWNKTLGQIVKKLGAQFGNKTTMIFNQSSGGDPEIVTHSFNCGGEFFYCNTSALFNSTWSSNDGNGTWNKTNSTETNSTEIILQCRIKQIVNMWQEVGKAMYAPPIKGPIRCSSNITGLILTRDGGNNTGNNSETFRPAGGNMRDNWRSELYKYKIVKIEPLGIAPTKAKRRTVQREKRAVTMGAMFLGFLGAAGSTMGAASLTLTVQARQLLSGIVQQQNNLLRAIEAQQHLLQLTVWGIKQLQARVLAVERYLADQRFLGIWGCSGKLICTTTVPWNNSWSNKSLDSIWNNMTWMQWEKEIENYTGEIYNLIEQAQNQQEQNERELLELDKWASLWNWFDIPNWLWYIKIFIMIVGGLIGLRIVFAVLSIVNRVRQGYSPLSLQTLLPTPRGPDRPEGIEGEGGERDRDTSIRLVDGFLALFWDDLRNLCLFSYRHLRDLLLIAARIVELLGLRGWEILKYLWNLLLYWSQELKNSAISLLDATAIAVAEGTDRIIEAVRRFCRGVLHIPRRIRQGFERALQ
B6 was tested, and the “neutralization IC50” value [1] was 0.006 µg/mL, the “neutralization IC50” value [2] was 0.154 µg/mL and the “neutralization IC80” value [3] was 0.049 µg/mL. The “neutralization IC80” value [4] was 0.703 µg/mL.

Source: the supplement of paper PMC12637763
